# Experimental data reported in PubChem BioAssay AID1476 (National Center for Advancing Translational Sciences (NCATS), 2009).
# The chains behind the UniProt entries cited, without tags or fusion partners. Residues count along the entry.
# UniProt P25779, 123-467 limits assumed: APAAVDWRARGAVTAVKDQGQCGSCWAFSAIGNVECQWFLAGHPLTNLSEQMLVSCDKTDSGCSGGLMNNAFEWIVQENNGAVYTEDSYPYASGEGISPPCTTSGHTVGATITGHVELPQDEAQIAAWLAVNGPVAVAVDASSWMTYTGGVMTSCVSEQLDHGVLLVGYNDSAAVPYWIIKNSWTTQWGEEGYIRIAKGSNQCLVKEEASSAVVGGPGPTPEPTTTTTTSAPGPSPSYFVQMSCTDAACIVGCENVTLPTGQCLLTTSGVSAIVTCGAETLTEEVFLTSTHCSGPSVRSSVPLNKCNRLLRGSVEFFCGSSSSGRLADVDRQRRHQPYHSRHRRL
# Only a part is listed here, and it is no random draw. Inconclusive results are not listed. Some structures show a salt or complex split into parts, the way the source records it. The source made the active and inactive calls. Calls follow the shape of the dose curve; as a rule, active = well fitted inhibition curve with a large enough effect; inconclusive = small, poorly fitted or top-dose-only effect, or effect the other way; inactive = flat fitted curve, though single readings scatter.
# Target: Cruzipain (Trypanosoma cruzi) (UniProt P25779)
# Experiment: qHTS Assay for Promiscuous and Specific Inhibitors of Cruzain (without detergent);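 also: plate controls were enzyme without inhibitor for no effect and buffer without enzyme for full effect; nearly all actives have a fitted effect of over 40% in size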
# Settings: purified cruzain, Z-FR-AMC fluorescence, no detergent
row,SMILES,"max response, negative = inhibition"
1,Cc1ccc([N+](=O)[O-])cc1[N+](=O)[O-],inactive: -4.55%
2,O=[N+]([O-])OCC(CO[N+](=O)[O-])(CO[N+](=O)[O-])CO[N+](=O)[O-],inactive: -11.4%
3,O=P(Nc1nccs1)(c1ccccc1)c1nc2ccccc2s1 (stereo unspecified),inactive: 2.51%
4,O=[N+]([O-])c1cccc([N+](=O)[O-])c1,inactive: -2.65%
5,O=[As](O)(O)c1ccc([As](=O)(O)O)cc1,inactive: 0.995%
6,Cc1ccc(NP(C)(=O)Oc2ccccc2)c(C)c1 (stereo unspecified),inactive: 0.854%
7,COc1ccccc1OP(C)(=O)Nc1ccc(C)cc1 (stereo unspecified),inactive: 6.53%
8,[N-]=[N+]=NCC(N)=O,inactive: 10.7%
9,O=[As]c1ccc(S(=O)(=O)NCCO)cc1 (stereo unspecified),inactive: 5.71%
10,ClCCSc1nnc(-c2cccnc2)o1,inactive: 2.22%
11,CCOC(=O)c1ccc(NP(C)(=O)Oc2ccccc2)cc1 (stereo unspecified),inactive: -2.88%
12,O=[N+]([O-])c1cc([N+](=O)[O-])c(-c2ccn[nH]2)s1,inactive: -15.8%
13,COc1ccc(OP(C)(=O)Nc2cccc(F)c2)cc1 (stereo unspecified),inactive: 10.2%
14,CCN(CC)C(=S)SC(NC=O)C(Cl)(Cl)Cl (stereo unspecified),inactive: -6.41%
15,Cc1ccc2nc3c(c(C)c2c1)CC(C(Cl)Cl)S3 (stereo unspecified),inactive: -11.6%
16,CC(C)(C)c1ccc(OP(C)(=O)Nc2ccc(SC(F)(F)F)cc2)cc1 (stereo unspecified),inactive: 6.5%
17,O=[N+]([O-])[O-].[NH4+],inactive: 3.9%
18,O=C(OC1CN2CCC1CC2)C12CC3CC(CC(C3)C1)C2 (stereo unspecified),inactive: -7.12%

row,SMILES,"max response, negative = inhibition"
1,Cc1c2c(nc3ccccc13)SC(C(Cl)Cl)C2 (stereo unspecified),inactive: -9.24%
2,NC(=O)Nc1cc([As](=O)(O)O)cc(I)c1O,inactive: 7.9%
3,CCOC(=O)c1ccc(NP(C)(=O)Oc2ccc(OC)cc2)cc1 (stereo unspecified),inactive: -0.16%
4,CCOP(C)(=S)SCC(=O)NC(C)C(=O)O (stereo unspecified),inactive: -0.975%
5,CP(=O)(Nc1ccccn1)Oc1ccc(Cl)cc1 (stereo unspecified),inactive: -4.43%
6,CCC(C)N(CC(C)C)C(=S)SC(NC(C)=O)C(Cl)(Cl)Cl (stereo unspecified),inactive: 18.3%
7,[Au].[Au].c1ccc([PH+](c2ccccc2)c2ccccc2)cc1.c1ccc([PH+](c2ccccc2)c2ccccc2)cc1.n1n[nH]c(-c2nnn[nH]2)n1,inactive: -7.26%
8,Cc1cccc(C)c1OP(C)(=O)Nc1ccc(SC(F)(F)F)cc1 (stereo unspecified),inactive: 9.48%
9,COP1(=S)c2c(C)nn(CCC#N)c2N=C(c2ccc(F)cc2)N1C (stereo unspecified),inactive: -4.96%
10,Cc1cc(C)cc(OP(C)(=O)Nc2ccc(SC(F)(F)F)cc2)c1 (stereo unspecified),inactive: 27%
11,O=C(O)[C@@H](O)c1ccc([As](=O)(O)O)cc1,inactive: -0.902%
12,O=C(COc1ccccc1)OC1CN2CCC1CC2 (stereo unspecified),inactive: -8.78%
13,CP(=O)(NC(=O)Nc1ccccc1)Oc1ccccc1 (stereo unspecified),inactive: 5.28%
14,CP(=S)(Nn1cnnc1)Oc1ccccc1 (stereo unspecified),inactive: 4.53%
15,CP(=O)(Nc1ccccc1Br)Oc1ccccc1 (stereo unspecified),inactive: 3.76%
16,CN(N=O)C(=N)N[N+](=O)[O-],inactive: -1.82%
17,N1=C(c2nnc(-c3nn[nH]n3)nn2)NNN1,inactive: 0.517%
18,Cc1cc(SC(NC(=O)c2ccccc2)C(Cl)(Cl)Cl)nc(C(C)C)n1 (stereo unspecified),inactive: 0.774%
